Target: A(H1N1)pdm09-NA 247N (Influenza A virus, UniProt C3W5S3, S247N)
Format: biochemical

In the case of `CC(=O)N[C@H]1[C@H]([C@H](O)[C@H](O)CO)OC(C(=O)O)=C[C@@H]1N=C(N)N` [Zanamivir, zanamivir], the “increase of the inhibitor's IC50 in comparison to wild-type NA-S247” value is reported as “up to five-fold increase”.
